Pooled drug test results. Numbers come from NIAID ChemDB, via PubChem.

All rows: growth or infection tests; species: Hepatitis C virus

Rows are shuffled and stem from different studies. An empty or dashed field is not shown. ECn: concentration that inhibits the pathogen or its effect by n%.

structure	measure	method	strain or isolate	changes	cells	value
C[C@@]1(O)[C@H](O)[C@@H](CO)O[C@H]1n1ccc(N)nc1=O	EC50	replicon	-	-	Huh 5-2	0.8 µM
COC(=O)[C@H](C)NP(=O)(OC[C@H]1O[C@@H](n2ccc3c(N)nc(N)nc32)[C@](C)(O)[C@@H]1O)Oc1ccccc1	EC50	-	-	-	Huh7	<100 µM
O=C(O)c1cc2c(s1)c(C1CCCCC1)c(-c1ccccc1)n2Cc1ccccc1	EC50	-	-	-	Huh7	10.7 µM
CCCC(NC(=O)[C@@H]1C2CCC(=O)C2CN1C(=O)[C@@H](NC(=O)[C@@H](NC(=O)c1cnccn1)C(C)C)C(C)C)C(=O)C(=O)Nc1ccccc1	EC50	replicon	-	-	Huh7	>25 µM
CCC[C@H](NC(=O)C1CC(Oc2cc(-c3ccccc3)nc3cc(OC)ccc23)CN1C(=O)[C@@H](NC(=O)OC(C)(C)C)C(C)C)C(=O)NS(=O)(=O)Cc1ccccc1	EC50	replicon	-	-	Huh7	4.6 µM
C=C(c1ccc(C(=O)O)cc1)c1cc2c(cc1C)C(C)(C)CCC2(C)C	EC50	MTT	-	-	Huh7.5.1	0.00019 µM
CN1CCn2c(c(C3CCCCC3)c3sc(C(=O)O)cc32)-c2ccccc2C1	EC50	-	-	-	Huh7	0.62 µM
CCC[C@H](NC(=O)C1CC(Oc2cc(-c3ccccc3)nc3cc(OC)ccc23)CN1C(=O)[C@@H](NC(=O)OC(C)(C)C)C(C)C)C(=O)O	EC50	replicon	-	-	Huh7	>10 µM
C[C@@]1(O)[C@H](O)[C@@H](CO)O[C@H]1n1cnc2c(=O)[nH]c(N)nc21	EC50	-	-	-	Huh7	<100 µM
CCC[C@H](NC(=O)[C@@H]1[C@H]2CCC[C@H]2CN1C(=O)[C@@H](NC(=O)[C@@H](NC(=O)c1cnccn1)C1CCCCC1)C(C)(C)C)C(=O)C(=O)NC1CC1	EC50	antigen	SA13	-	Huh7.5	1.202 µM
CCC[C@H](NC(=O)C1CC(Oc2cc(-c3ccccc3)nc3cc(OC)ccc23)CN1C(=O)[C@@H](NC(=O)OC(C)(C)C)C(C)C)C(=O)NS(=O)(=O)C(C)C	EC50	replicon	-	-	Huh7	>10 µM
CC(C)n1c(/C=C/[C@@H](O)C[C@@H](O)CC(=O)O)c(-c2ccc(F)cc2)c2ccccc21	EC90	luciferase / replicon	-	-	Huh 5-2	14 µM
C[C@@]1(O)[C@H](O)[C@@H](CO)O[C@H]1n1ccc2c(=O)[nH]c(N)nc21	EC50	-	-	-	Huh7	<100 µM
CN(C)Cc1c(C(=O)O)sc2c(C3CCCCC3)c(-c3ccc(Cl)cc3)n(CC(=O)N3CCOCC3)c12	EC50	-	-	-	Huh7	1.9 µM
CCCC(NC(=O)[C@@H]1C2CCCC2CN1C(=O)[C@@H](NC(=O)[C@H](CC1CCCCC1)NC(=O)c1cnccn1)C(C)(C)C)C(=O)C(=O)NC1CC1	EC50	replicon	-	-	Huh7	0.55 µM
Cc1cc2c(cc1-c1cc(/C=C/C(=O)O)ccc1O)C(C)(C)CCC2(C)C	EC50	MTT	-	-	Huh7.5.1	0.00026 µM
COC(=O)[C@H](C)NP(=O)(OC[C@H]1O[C@@H](n2ccc3c(=O)[nH]c(N)nc32)[C@](C)(O)[C@@H]1O)Oc1ccccc1	EC50	-	-	-	Huh7	<100 µM
O=c1c(O)c(-c2ccc(O)c(O)c2)oc2cc(O)c(O)c(O)c12	EC50	PCR	J6/JFH1	-	Huh7.5	40.2 µM
CCCC(NC(=O)[C@@H]1C2CC[C@@H](F)C2CN1C(=O)[C@@H](NC(=O)[C@@H](NC(=O)c1cnccn1)C(C)C)C(C)C)C(=O)C(=O)NC1CC1	EC50	replicon	-	-	Huh7	<25 µM
CC1=C(/C=C/C(C)=C\C=C\C(C)=C\C(=O)O)C(C)(C)CCC1	EC50	MTT	-	-	Huh7.5.1	0.00424 µM
CCC[C@H](NC(=O)[C@@H]1C2CCCC2CN1C(=O)[C@@H](NC(=O)[C@@H](NC(=O)c1cnccn1)C1CCCCC1)C(C)(C)C)C(=O)C(=O)N[C@@H](C)c1ccc(C)cc1	EC50	replicon	-	-	Huh7	0.47 µM
CCC[C@H](NC(=O)[C@@H]1[C@H]2CCC[C@H]2CN1C(=O)[C@@H](NC(=O)[C@@H](NC(=O)c1cnccn1)C1CCCCC1)C(C)(C)C)C(=O)C(=O)NC1CC1	EC50	PCR	1a H77	T1280A S1358P D1432N F1809L I1839V	Huh7	0.7 µM
O=C(O)c1ccc2c(c1)nc(-c1ccc(OCc3cc(N4CCCC4=O)ccc3-c3ccc(Cl)cc3)cc1F)n2C1CCCCC1	EC50	luciferase / replicon	GT3a	-	Huh7.5	1.508 µM
Nc1ncnc2c1ncn2[C@@H]1O[C@H](OCP(=O)(O)O)[C@@H](O)[C@H]1O	EC50	replicon	-	-	Huh7	65 µM
CC[C@H]1C[C@]1(NC(=O)[C@@H]1C[C@@H]2CN1C(=O)[C@H](C(C)(C)C)NC(=O)OCC(C)(C)CCCCc1cccc3c1CN(C3)C(=O)O2)C(=O)NS(=O)(=O)C1CC1	EC50	antigen	JFH-1	L1062M R1181K	Huh7.5	5.111 µM
CCCCCCCOc1cc2c(cc1/C(C)=C/c1ccc(C(=O)O)cc1)C(C)(C)CCS2(=O)=O	EC50	MTT	-	-	Huh7.5.1	0.000943 µM
C#C[C@@]1(O)[C@H](O)[C@@H](CO)O[C@H]1n1ccc2c(N)ncnc21	EC50	luciferase / replicon	-	-	Huh7	0.11 µM

Repeating the final 2 entries:

structure	measure	method	strain or isolate	changes	cells	value
CCCCCCCOc1cc2c(cc1/C(C)=C/c1ccc(C(=O)O)cc1)C(C)(C)CCS2(=O)=O	EC50	MTT	-	-	Huh7.5.1	0.000943 µM
C#C[C@@]1(O)[C@H](O)[C@@H](CO)O[C@H]1n1ccc2c(N)ncnc21	EC50	luciferase / replicon	-	-	Huh7	0.11 µM